Reference: US8895604B2, “Solid forms of (1r,4r)-6′-fluoro-N,N-dimethy1-4-phenyl-4′,9′-dihydro-3′ H-spiro-[cyclohexane-1,1′-pyrano-[3,4,b]indol]-4-amine hydrochloride” (dated 2014)

Columns and labels:
[1] = Suspension equilibration experiments; details: Ex. 3-1: H2O, 200 mg/2 mL, 7 days, RT, dried under vacuum
[2] = Dynamic vapour sorption (DVS)
[3] = Solubility in water (saturated solutions, HPLC); details: bidest H2O, saturated solution, 24 h equilibration time, RT
[4] = Hygroscopicity testing by storage at RT and 85% r.h.; details: 24 h
[5] = Mechanical stress from grinding with an agate mortar (PXRD); details: grinded in an agate mortar for 10 min
[6] = Storage at high relative humidity with FT-Raman / TG-FTIR; details: about 3 weeks at 97% r.h. at RT
[7] = Drying of solids from acid-base reaction experiments; details: solid from water-containing experiments, dried

Substance	outcome (crystall. form) [1]	mass change Δm in DVS ([2]; two cycles, 50→0→95→50% r.h.)	solubility [3]	mass change Δm on storage [4]	hygroscopicity class ([4]; classified according to European Pharmacopoeia)	conversion of crystalline form upon grinding [5]	water content reached by water uptake in DVS ([2]; 50→0→95→50% r.h. (2.5%/h), strong stepwise uptake)	conversion of crystalline form by DVS measurement ([2]; checked before and after repeated DVS by FT-Raman)	relative humidity at which loss of water was completed in DVS ([2]; on lowering the humidity, hysteresis)	water content after storage [6]	conversion of crystalline form upon drying [7]
(1r,4r)-6′-fluoro-N,N-dimethyl-4-phenyl-4′,9′-dihydro-3′H-spiro[cyclohexane-1,1′-pyrano[3,4,b]indol]-4-amine hydrochloride	did not convert to another form	< 0.2%	1.21 µg/mL	0%	not hygroscopic (not hygroscopic (nh): increase of the mass is less than 0.2%)	does not convert to another form	–	–	–	–	–
(1r,4r)-6′-fluoro-N,N-dimethyl-4-phenyl-4′,9′-dihydro-3′H-spiro[cyclohexane-1,1′-pyrano[3,4,b]indol]-4-amine hydrochloride [crystalline form B]	–	–	–	–	–	does not convert to another form	approx. 15.4%	No conversion	about 50 % r.h.	about 19%	–
(1r,4r)-6′-fluoro-N,N-dimethyl-4-phenyl-4′,9′-dihydro-3′H-spiro[cyclohexane-1,1′-pyrano[3,4,b]indol]-4-amine hydrochloride [crystalline form C]	–	–	–	–	–	–	–	–	–	–	converts to crystalline form A upon drying
